For at least one entry, the source does not settle the construct or the ends of the probe. For some assays here: A negative result means that nothing was seen under these conditions.
Legend:
[1] = biological target: PmrA FL (Acinetobacter baumannii) (UniProt E2FGC2); experiment: ITC; details: ITC: 25 mM Tris pH 8.0, 150 mM NaCl, 10% glycerol, 25 C, with or without BeF3-/Mg2+ (5.3 mM BeSO4, 35 mM NaF, 7 mM MgCl2 in purification), recombinant protein, protein details: N-terminal 6xHis
[2] = biological target: PmrA FL (Acinetobacter baumannii) (UniProt E2FGC2); experiment: EMSA; details: phosphorylation state not stated; EMSA: 10 mM Tris pH 7.5, 50 mM KCl, 1 mM DTT, 5% glycerol, 30 min, 1 pmol DNA in 10 ul, gel on ice; recombinant protein; protein details: N-terminal 6xHis; label: 5' biotin (forward primer); probe letters rebuilt from the primers and the genome

TATTTAAGTCATTTTTAAGTT (double strand) [PAbindingDNA 21 bp direct repeat]
Kd ([1]; BeF3- and Mg2+ (phosphorylation mimic)): 596 nM | binding result ([1]; no BeF3-, no Mg2+): no binding

TACCTAGCTCATTCCTAGCTT / AACGTAGGTCATTCGTAGGTA [PAmutatedDNA 21 bp]
binding result ([1]; BeF3- state not stated for this row): no binding

GGCTAATCAAAGTGTACAGATTATATTTTTATTTACTATAAAATCTTATAGTTAAAGCTTATTTCTTAAAAAAATTGACTTAAATTTTATAAAAAATCAAATAAATTCAATAAATTAATTTACATCAATTGTCATAAAACCTTAAGAAAACTTTAAGTTGGAATTAAGGAAATTTCTCCATATTAAAAACGTATAGTTTTTCAGCAGCTAAGCAGAATAATTCTGTAACCCTGCCCTATGGTGGAATTTAG (double strand) [naxD promoter 251 bp]
binding result [2]: binds

GTCTTACAAAGATAACCGTGTTGGTTTAATGGCTAAATATAGTTTCTAATAACGATTTTTTTAGCTAAAAATAGAAAAGACGAGGTTAAACTTAACCTCGTCTTTTTTTATTTGTTAAATTTAACAAATAATAATGAAATAAGGTCTCTAAATTAGATCATTTTTTATTTAAGTCATTTTTAAGTTTCAATTTCTACATTAAAGCATCATAAAAAGATTGTAGTCACTCACG (double strand) [pmrC promoter 232 bp]
binding result [2]: binds
